Compound potency records, mixed from different reports. Data source: NIAID ChemDB in PubChem.

Shared fields: growth or infection tests; organism: HIV-1; read by: p24; measure: fold resistance

Two numbers with a dash give a range or band. Fold resistance: result on the changed form divided by that on wild type. Blank or dashed fields: not listed here. Lines come from different laboratories, so protocols vary.

smiles | strain | mutations | cell line | result
Cc1nnc(C[C@H](C[C@H](O)CN2CCN(C(C)(C)c3ncc(-c4ccc(Cl)cc4)o3)C[C@H]2C(=O)NCC(F)(F)F)C(=O)N[C@H]2c3ccccc3OC[C@H]2O)o1 | V-18 Clinical isolate | PR-L10I M36I N37D M46I R57K L63P A71V G73S I84V L90M I93L | MT-4 | 0.252
CC(C)CN(C[C@@H](O)[C@H](Cc1ccccc1)NC(=O)O[C@H]1CCOC1)S(=O)(=O)c1ccc(N)cc1 | TM | PR-L10I K14R R41K M46I I54V L63P A71V V82A L90M I93L | PBMC | 24
C[C@H](CNC(=S)Nc1ccc(Cl)cn1)c1ccccc1 | NNRTI-resistant (RT Y181C K103N) A17V | RT-Y181C K103N | PBMC | >2631
CCCc1nnc(C[C@H](C[C@H](O)CN2CCN(C(C)(C)c3ncc(-c4ccc(Cl)cc4)o3)C[C@H]2C(=O)NCC(F)(F)F)C(=O)N[C@H]2c3ccccc3OC[C@H]2O)o1 | Q-60 Clinical isolate | PR-L10I N37S R41K M46I I54V I62V L63P A71V V77I V82A L90M I93L | MT-4 | 1
Nc1ccn([C@H]2CO[C@@H](CO)S2)c(=O)n1 | HXB2D (RT-K65R) | RT-K65R | PBMC | 35
Nc1ccn([C@H]2CC[C@@H](CO)O2)c(=O)n1 | HXB2D (RT-K65R) | RT-K65R | H9 | 8.67
O=C(N[C@H]1c2ccccc2OC[C@H]1O)[C@H](Cc1cc2ccncc2o1)C[C@H](O)CN1CCN(Cc2ccc(-c3ccc(Cl)cc3)o2)C[C@H]1C(=O)NCC(F)(F)F | 4X (PR M46I L63P V82T I84V) | PR-M46I L63P V82T I84V | MT-4 | >4
COc1ccc(OC)c(CCNC(=S)Nc2ccc(Br)cn2)c1 | A17 | RT-Y181C | PBMC | >140
Cc1ccccc1CNC(=O)[C@H]1N(C[C@@H](O)C[C@@H](Cc2ccccc2)C(=O)N[C@H]2c3ccccc3OC[C@H]2O)CSC1(C)C |  | PR-K60C | MT-4 | >4
Nc1nc2c(ncn2[C@H]2CO[C@@H](CO)O2)c(=O)[nH]1 | 3TC-resistant (RT M184V) Clinical isolate | RT-M184V | PBMC | 1
Cc1cn([C@H]2C[C@H](N=[N+]=[N-])[C@@H](CO)O2)c(=O)[nH]c1=O | HXB2-D50(RT-I50T) | RT-I50T | MT-4 | 1
Cc1cn([C@H]2C[C@H](N=[N+]=[N-])[C@@H](CO)O2)c(=O)[nH]c1=O |  | RT-M184V | CD4+HELA + HeLa | 0.4375
Cc1csc(NC(=S)N[C@H](C)c2ccccc2)n1 | NNRTI-resistant (RT Y181C K103N) A17V | RT-Y181C K103N | PBMC | >196
Cc1csc(NC(=S)NC[C@H](C)c2ccccc2)n1 | NNRTI-resistant (RT Y181C K103N) A17V | RT-Y181C K103N | PBMC | 20
CCCc1nnc(C[C@H](C[C@H](O)CN2CCN(Cc3ccc(-c4ccc(Cl)cc4)o3)C[C@H]2C(=O)NCC(F)(F)F)C(=O)N[C@H]2c3ccccc3OC[C@H]2O)o1 | V-18 Clinical isolate | PR-L10I M36I N37D M46I R57K L63P A71V G73S I84V L90M I93L | MT-4 | ≥15.6
S=C(NCCc1ccc(Br)cc1)Nc1ccc(Br)cn1 | A17 | RT-Y181C | PBMC | 14.3
CCc1cc(NCc2nc3c(Cl)ccc(Cl)c3o2)c(=O)[nH]c1C | NL4-3 | RT-V108I | MT-4 | 4
C[C@@H](CNC(=S)Nc1ccc(Cl)cn1)c1ccccc1 | NNRTI-resistant (RT Y181C) A17 | RT-Y181C | PBMC | >260
CC(C)(O)c1cccc(CN2C(=O)N(Cc3cccc(C(C)(C)O)c3)[C@H](Cc3ccccc3)[C@H](O)[C@@H](O)[C@H]2Cc2ccccc2)c1 | HXB2 | PR-V82F/184V | MT-2/MT-4 + MT-2 | 260
COc1cncc(-c2cnc(C(C)(C)N3CCN(C[C@@H](O)C[C@@H](Cc4nnc(-c5ccccc5)o4)C(=O)N[C@H]4c5ccccc5OC[C@H]4O)[C@H](C(=O)NCC(F)(F)F)C3)o2)c1 | V-18 Clinical isolate | PR-L10I M36I N37D M46I R57K L63P A71V G73S I84V L90M I93L | MT-4 | >8
O=c1[nH]cnc2c1ncn2[C@H]1CC[C@@H](CO)O1 | HxB2D(RT-D67G) | RT-D67G | PBMC | 1.79
CC(C)CN(C[C@@H](O)[C@H](Cc1ccccc1)NC(=O)[C@H](CC(N)=O)NC(=O)c1ccc2ccccc2n1)C(=O)NC(C)(C)C | NL4-3 | PR-V82T | MT-4 | 0.5
CCCCN1C(=O)C(CC2CCCCC2)NC(=O)C12CCN(Cc1ccc3c(c1)OCCO3)CC2 | MM | MDR | PBMC | 1
Cc1cn([C@H]2C[C@H](N=[N+]=[N-])[C@@H](CO)O2)c(=O)[nH]c1=O | NL4-3 | RT-I178L | MT-2 | 0.667
O=c1[nH]cnc2c1ncn2[C@H]1CC[C@@H](CO)O1 | HXB2D (RT-K65R) | RT-K65R | CBMC | 3.55
Cc1c(N)nc([C@H](CC(N)=O)NC[C@H](N)C(N)=O)nc1C(=O)N[C@H](C(=O)N[C@H](C)[C@@H](O)[C@H](C)C(=O)N[C@H](C(=O)NCCc1nc(-c2nc(C(=O)NCCC[S+](C)C)cs2)cs1)[C@@H](C)O)C(O[C@@H]1O[C@@H](CO)[C@@H](O)[C@H](O)[C@@H]1O[C@H]1O[C@H](CO)[C@@H](O)[C@H](OC(N)=O)[C@@H]1O)c1cnc[nH]1 | Recombinant 3TC/AZT-resistant | RT-M41L M184V T215Y | PBMC | 0.57
Cc1ccc(NC(=S)NC[C@H](C)c2ccccc2)nc1 | NNRTI-resistant (RT Y181C K103N) A17V | RT-Y181C K103N | PBMC | 600
Cc1ccnc2c1NC(=O)c1cccnc1N2C1CC1 | B8 (RT K101I K103N Y181C G190A) | RT-K101I K103N Y181C G190A | H9 | >111
CCN1c2ncc(CCOc3ccc(C(=O)O)c4c3CCCC4)cc2C(=O)N(C)c2cccnc21 |  | RT-K103N Y181C | C8166 | 1
C1CNCCNCCCN(CCCN2CCCNCCNCCCNCC2)CCNC1 | NL4-3 | gp120 F145L N269E Q278H I288V N293D FNSTW364-368 deletion | MT-4 | >83.3
Cc1cn([C@H]2C[C@H](N=[N+]=[N-])[C@@H](CO)O2)c(=O)[nH]c1=O | HXB2D (RT-M184V) | RT-M184V | MT-4 | 1.25
CCN1c2ncc(CCOc3ccc(CCC(=O)NN)c4ccccc34)cc2C(=O)N(C)c2cccnc21 |  | RT-K103N Y181C | C8166 | 1–10
Cc1csc(NC(=S)NC[C@H](C)c2ccccc2)n1 | NNRTI-resistant (RT Y181C K103N) A17V | RT-Y181C K103N | PBMC | 18
C[C@H](Cn1cnc2c(N)ncnc21)OCP(=O)(O)O | G910-6 AZT-resistant (RT D67N K70R T215F K219Q) | RT-D67N K70R T215F K219Q | MT-2 | 0.282
Cc1cccc(NC(=S)NC[C@H](C)c2ccccc2)n1 | NNRTI-resistant (RT Y181C K103N) A17V | RT-Y181C K103N | PBMC | 300
CC(C)(c1ncc(-c2ccc(F)cc2)o1)N1CCN(C[C@@H](O)C[C@@H](Cc2nnc(-c3ccccc3)o2)C(=O)N[C@H]2c3ccccc3OC[C@H]2O)[C@H](C(=O)NCC(F)(F)F)C1 | Q-60 Clinical isolate | PR-L10I N37S R41K M46I I54V I62V L63P A71V V77I V82A L90M I93L | MT-4 | ≥2
O=c1[nH]cnc2c1ncn2[C@H]1CC[C@@H](CO)O1 | HXB2D (RT-K65R) | RT-K65R | PBMC | 3.67
Cc1c(O)cccc1C(=O)N[C@@H](CSc1ccccc1)[C@H](O)CN1C[C@H]2CCCC[C@H]2C[C@H]1C(=O)NC(C)(C)C | JSL | MDR | PBMC | >71
Cc1cn([C@H]2C[C@H](N=[N+]=[N-])[C@@H](CO)O2)c(=O)[nH]c1=O | UC781-resistant (RT K103N Y181C) A17 | RT-K103N Y181C | MT-2 | 0.8
CC(C)Nc1cccnc1N1CCN(C(=O)c2cc3cc(NS(C)(=O)=O)ccc3[nH]2)CC1 | BaL | RT-V106A | PBMC | 70
Cc1cn([C@H]2C=C[C@@H](CO)O2)c(=O)[nH]c1=O | HxB2D(RT-D67G) | RT-D67G | PBMC | 0.833
C[C@@H](CNC(=S)Nc1ccc(Cl)cn1)c1ccccc1 | NNRTI-resistant (RT Y181C) A17 | RT-Y181C | PBMC | >300
Nc1ccn([C@H]2CC[C@@H](CO)O2)c(=O)n1 | 126 3TC (RT-M184V) | RT-M184V | MT-4 | 8
Cc1cn([C@H]2C[C@H](N=[N+]=[N-])[C@@H](CO)O2)c(=O)[nH]c1=O | TM | MDR | PBMC | 98
CC(C)CN(C[C@@H](O)[C@H](Cc1ccccc1)NC(=O)O[C@@H]1[C@@H]2CCCO[C@@H]2O[C@H]1C)S(=O)(=O)c1ccc(N)cc1 | MM | PR-L10I K43T M46I I54V L63P A71V V82A L90M Q92K | PBMC | 5
O=c1[nH]cnc2c1ncn2[C@H]1CC[C@@H](CO)O1 | MM | MDR | PBMC | 8
COc1ccc2c(c1)N(C(=O)OC(C)C)[C@@H](CSC)C(=S)N2 | B8 (RT K101I K103N Y181C G190A) | RT-K101I K103N Y181C G190A | H9 | >1430
CC(C)(c1ncc(-c2ccc(Cl)cc2)o1)N1CCN(C[C@@H](O)C[C@@H](Cc2nnco2)C(=O)N[C@H]2c3ccccc3OC[C@H]2O)[C@H](C(=O)NCC(F)(F)F)C1 | K-60 Clinical isolate | PR-L10I M46I I54V Q58E L63P I64V V77I V82F I84V L90M I93L | MT-4 | 0.504
O=c1[nH]cnc2c1ncn2[C@H]1CC[C@@H](CO)O1 | XM-AZT-resistant | RT-M41L D67N K70R T215Y K219Q | PBMC | 0.3
Cc1cn([C@H]2C[C@H](N=[N+]=[N-])[C@@H](CO)O2)c(=O)[nH]c1=O | BaL | RT-V106A | Macrophage + Monocytes/macrophages | 1
O=C(Nc1ncc[nH]1)c1cccc(CN2C(=O)N(Cc3cccc(C(=O)Nc4ncc[nH]4)c3)[C@H](Cc3ccccc3)[C@H](O)[C@@H](O)[C@H]2Cc2ccccc2)c1 | HXB2 | PR-V82F | MT-4 | 1.6
C[C@H](CNC(=S)Nc1ccc(Cl)cn1)c1ccccc1 | NNRTI-resistant (RT Y181C) A17 | RT-Y181C | PBMC | 12.5
CCN1c2ncc(CCOc3ccc(CC(=O)O)c4ccccc34)cc2C(=O)N(C)c2ccc(F)nc21 |  | RT-K103N Y181C | C8166 | 1
Cc1ccnc2c1NC(=O)c1cccnc1N2C1CC1 | NRTI resistant (RT Y181C K103N) A17 variant | RT-Y181C K103N | PBMC | 2941
CC(C)[C@H](NC(=O)N(C)Cc1ccccn1)C(=O)N[C@@H](Cc1ccccc1)[C@H](O)[C@H](O)[C@H](Cc1ccccc1)NC(=O)[C@@H](NC(=O)N(C)Cc1ccccn1)C(C)C | NL4-3 | PR-R8K | MT-4 | 20
O=C(NCc1ccc(F)cc1)c1nc(N2CCCCS2(=O)=O)c2cccnc2c1O |  | INTG-S153Y N155S |  | 11
C[C@@H](CNC(=S)Nc1ccccn1)c1ccccc1 | NNRTI-resistant (RT Y181C) A17 | RT-Y181C | PBMC | 76
CCc1cc(NCc2nc3c(Cl)ccc(Cl)c3o2)c(=O)[nH]c1C | R88703-resistant IIIB (RT Y181C) | RT-Y181C | MT-4 | 70
CCN1c2ncc(CCOc3ccc(C(=O)O)c4ccccc34)cc2C(=O)N(C)c2cccnc21 |  | RT-K103N Y181C | C8166 | 1
Cc1cn([C@H]2C[C@H](N=[N+]=[N-])[C@@H](CO)O2)c(=O)[nH]c1=O | XM-Q151M | RT-A62V V75I F77C F116Y Q151M | PBMC | >3130
Cc1ccccc1Cc1cccc(C(=O)CC(=O)C(=O)O)c1 |  | INTG-T66I S153Y |  | 6
CC(C)(C)NC(=O)[C@@H]1C[C@@H]2CCCC[C@@H]2CN1C[C@@H](O)[C@H](Cc1ccccc1)NC(=O)[C@H](CC(N)=O)NC(=O)c1ccc2ccccc2n1 | NL4-3 | PR-V82T | MT-4 | 1
Cc1ccc(NC(=S)NC[C@H](C)c2ccccc2)nc1 | NNRTI-resistant (RT Y181C) A17 | RT-Y181C | PBMC | 360
O=c1[nH]cnc2c1ncn2[C@H]1CC[C@@H](CO)O1 | Recombinant | RT-F77L | PBMC | 0.1
CC(C)Nc1cccnc1N1CCN(C(=O)c2cc3cc(NS(C)(=O)=O)ccc3[nH]2)CC1 | NRTI resistant (RT Y181C) A17 | RT-Y181C | PBMC | 11100
O=C(N[C@H]1c2ccccc2OC[C@H]1O)[C@H](Cc1nnco1)C[C@H](O)CN1CCN(Cc2ccc(-c3ccc(Cl)cc3)o2)C[C@H]1C(=O)NCC(F)(F)F | V-18 Clinical isolate | PR-L10I M36I N37D M46I R57K L63P A71V G73S I84V L90M I93L | MT-4 | 1.98
C[C@H]1O[C@@H]2OCCC[C@@H]2[C@@H]1OC(=O)N[C@@H](Cc1ccccc1)[C@H](O)CN1C[C@H]2CCCC[C@H]2C[C@H]1C(=O)NC(C)(C)C | MM | PR-L10I K43T M46I I54V L63P A71V V82A L90M Q92K | PBMC | >32
Cc1cn([C@H]2C[C@H](N=[N+]=[N-])[C@@H](CO)O2)c(=O)[nH]c1=O | G910-11-(RT-T215Y/F) NRTI resistant | RT-T215Y/F | PBMC | 50

A second listing of 6 rows from above:

smiles,strain,mutations,cell line,result
Cc1ccnc2c1NC(=O)c1cccnc1N2C1CC1,NRTI resistant (RT Y181C K103N) A17 variant,RT-Y181C K103N,PBMC,2941
O=C(N[C@H]1c2ccccc2OC[C@H]1O)[C@H](Cc1nnco1)C[C@H](O)CN1CCN(Cc2ccc(-c3ccc(Cl)cc3)o2)C[C@H]1C(=O)NCC(F)(F)F,V-18 Clinical isolate,PR-L10I M36I N37D M46I R57K L63P A71V G73S I84V L90M I93L,MT-4,1.98
O=c1[nH]cnc2c1ncn2[C@H]1CC[C@@H](CO)O1,XM-AZT-resistant,RT-M41L D67N K70R T215Y K219Q,PBMC,0.3
CCCCN1C(=O)C(CC2CCCCC2)NC(=O)C12CCN(Cc1ccc3c(c1)OCCO3)CC2,MM,MDR,PBMC,1
O=c1[nH]cnc2c1ncn2[C@H]1CC[C@@H](CO)O1,HXB2D (RT-K65R),RT-K65R,CBMC,3.55
CCc1cc(NCc2nc3c(Cl)ccc(Cl)c3o2)c(=O)[nH]c1C,R88703-resistant IIIB (RT Y181C),RT-Y181C,MT-4,70